From patent US20230002478A1, “Methods and compositions relating to covid antibody epitopes” (published 2023)
Where two headings read alike, the source gives them in different places.

Experiments:
Experiment in all cases: SPR; left panel
[1] = molecular target: SARS-CoV-2 mutant trimer South Africa TB918-08
[2] = molecular target: SARS-CoV-2 mutant trimer South Africa TB918-08; remark: listed apart in the source
[3] = molecular target: SARS-CoV-2 mutant trimer UK TB918-09

Row | Binder | Kd [1] [nM] | Kd [2] [nM] | Kd [3] [nM]
1 | 6-3 (Fc fusion) EVQLVESGGGLVQPGGSLRLSCAASGFTFSPSWMGWFRQAPGKEREFVATINEYGGRNYADSVKGRFTISADNSKNTAYLQMNSLKPEDTAVYYCARVDRDFDYWGQGTLVTVSS | 233 |  | 
2 | 6-63 (Fc fusion) EVQLVESGGGLVQPGGSLRLSCAASGQTFNMGWFRQAPGKEREFVAAIGSGGSTSYADSVKGRFTISADNSKNTAYLQMNSLKPEDTAVYYCWRLGNDYFDYWGQGTLVTVSS |  | 5000 | 1.9
